Pooled drug test results. Numbers come from NIAID ChemDB, via PubChem.

All rows: whole-cell or culture tests; organism: Candida albicans; read-out: Mean MIC

Neighbouring rows are from separate reports.

smiles,strain,value
COc1ccc(C(c2nccc3ccccc23)n2ccnc2)cc1.O=[N+]([O-])O,44 strains,>256 µg/mL
c1ccc(C(c2cccc3ccccc23)n2ccnc2)cc1,23 strains,8.88 µg/mL
Clc1ccc(COc2ccc(C(c3ccc(-c4ccccc4)cc3)n3ccnc3)cc2)c(Cl)c1.O=[N+]([O-])O,17 strains,≥256 µg/mL
c1csc(C(c2cccc3ccccc23)n2ccnc2)c1,23 strains,8.3 µg/mL
OC[C@@H]1CO[C@](Cn2ccnc2)(c2ccc(-c3ccccc3)cc2)O1,44 strains,102 µg/mL
Clc1ccc(C(c2ccc3ccccc3c2)n2ccnc2)s1,23 strains,2.4 µg/mL
Fc1ccc(COc2ccc(C(c3ccc(-c4ccccc4)cc3)n3ccnc3)cc2)c(F)c1.O=[N+]([O-])O,16 strains,≥256 µg/mL
Clc1ccc(CNc2cccc(Cn3ccnc3)c2)cc1,27 strains,41.83 µg/mL
COc1ccc(C(c2cccc3ccccc23)n2ccnc2)cc1,23 strains,18.28 µg/mL
Cc1c(CN(C)C)cc(-c2ccc(Cl)cc2)n1-c1ccc(Cl)cc1Cl,20 strains,61 µg/mL
O=C(Nc1ccccc1Cn1ccnc1)c1ccc(Cl)cc1,27 strains,150 µg/mL
Fc1ccccc1COc1ccc(C(c2ccc3ccccc3c2)n2ccnc2)cc1,17 strains,74.8 µg/mL
c1ccc(-c2ccc(C(c3cccc4ccccc34)n3ccnc3)cc2)cc1,23 strains,48.3 µg/mL
O=C(Nc1ccccc1Cn1ccnc1)c1ccc(F)cc1,27 strains,112.5 µg/mL
Fc1ccc(C(c2ccc3ccccc3c2)n2ccnc2)cc1,23 strains,10.36 µg/mL
O=C(Nc1ccccc1Cn1ccnc1)c1ccc(Cl)cc1[N+](=O)[O-],27 strains,125 µg/mL
Clc1ccc(C(c2cccc3ccccc23)n2ccnc2)s1,23 strains,3 µg/mL
Clc1ccc(COc2ccc(C(c3cccc4ccccc34)n3ccnc3)cc2)cc1.O=[N+]([O-])O,17 strains,≥256 µg/mL
Cc1c(C(N)=O)cc(-c2ccc(Cl)cc2)n1-c1ccc(Cl)cc1,20 strains,>200 µg/mL
O=C(Nc1ccc(Cn2ccnc2)cc1)c1ccc(Cl)cc1[N+](=O)[O-],27 strains,158 µg/mL
Clc1ccc(COc2ccc(C(c3ccc4ccccc4c3)n3ccnc3)cc2)c(Cl)c1,17 strains,≥256 µg/mL
Cc1c(CN2CCCC2)cc(-c2ccccc2)n1-c1ccccc1,20 strains,126.9 µg/mL
Fc1ccc(COc2ccc(C(c3ccc4ccccc4c3)n3ccnc3)cc2)cc1.O=[N+]([O-])O,17 strains,≥256 µg/mL
CC(=O)N1CCN(c2ccc(OCC3COC(Cn4ccnc4)(c4ccc(-c5ccccc5)cc4)O3)cc2)CC1,44 strains,53.9 µg/mL
c1ccc(C(c2ccc3ccccc3c2)n2ccnc2)cc1,23 strains,9.4 µg/mL
Cc1cc(CN(C)C)c(C)n1-c1ccccc1,20 strains,>200 µg/mL
O=C(OCC1COC(Cn2ccnc2)(c2ccc(-c3ccccc3)cc2)O1)c1ccccc1,44 strains,15.9 µg/mL
Clc1ccccc1COc1ccc(C(c2cccc3ccccc23)n2ccnc2)cc1.O=[N+]([O-])O,16 strains,≥256 µg/mL
CCC1CCCC(CC)C(=O)NCCCC(CC)C(OC2OC(C)C(O)C(N)C2OC2OC(CO)C(OC3OC(CO)C(O)C(O)C3O)C(O)C2O)CC1,12 strains,18 µg/mL
Clc1ccccc1COc1ccc(C(c2ccc(-c3ccccc3)cc2)n2ccnc2)cc1.O=[N+]([O-])O,16 strains,≥256 µg/mL
Cc1c(Cn2ccnc2)cc(-c2ccccc2)n1-c1ccc(Cl)cc1,20 strains,84.1 µg/mL
COc1cc(C(=O)Nc2cccc(Cn3ccnc3)c2)cc(OC)c1OC,27 strains,133 µg/mL

Repeating the first 2 entries:

smiles | strain | value
COc1ccc(C(c2nccc3ccccc23)n2ccnc2)cc1.O=[N+]([O-])O | 44 strains | >256 µg/mL
c1ccc(C(c2cccc3ccccc23)n2ccnc2)cc1 | 23 strains | 8.88 µg/mL